Compound potency records, mixed from different reports. Data source: NIAID ChemDB in PubChem.

Shared fields: enzyme or target tests

Neighbouring rows are from separate reports. Percent inhibition refers to the dose given; in toxicity tests it is the harm to the cells. Fold resistance: result on the changed form divided by that on wild type. ICn is the concentration giving n% inhibition. An empty or dashed field is not shown. Two numbers with a dash give a range or band.

compound | read by | target | agent | mutations | tested at | strain or isolate | endpoint | value
Fc1ccccc1N1CCN(c2cncc(-c3ccc4ccccc4c3)n2)CC1 | - | UL97 kinase | Cytomegalovirus | - | 1 µM | - | inhibition | <50%
N#Cc1ccc(C(=O)Nc2nnc(NCCCN3CCCC3=O)s2)cc1 | - | Polymerase | Human cytomegalovirus | - | - | - | IC50 | <25 µM
Cc1ccc(N2CCN(c3cncc(-c4ccc5ccccc5c4)n3)CC2)cc1C | - | UL97 kinase | Cytomegalovirus | - | - | - | IC50 | <10 µM
CN(C)c1cccc2c(S(=O)(=O)Nc3ccc(NC(=O)C(C)(C)CO)cc3)cccc12 | - | Terminase | Mouse cytomegalovirus | - | - | BAY-38-4766-resistant isolate | IC50 | 28.3 µM
CCCCCCCC/C=C/CCCCCCCC(=O)Nc1nnc(NCCNc2ccccc2)s1 | - | Polymerase | Human cytomegalovirus | - | - | - | IC50 | >25 µM
CNC(=O)Cc1cn2ccn(Cc3cccc(Cl)c3)c(=O)c2c(O)c1=O | ELISA | Integrase | HIV-1 | - | - | - | IC50 | 0.01–0.1 µM
CC(C)=CCN1Cc2cccc3[nH]c(=S)n(c23)C[C@@H]1C | nucleotide incorporation | Reverse transcriptase | HIV | RT-Y271S | - | - | fold resistance | 125
CCCCN(C(=O)Nc1ccc(F)cc1)[C@@H](CC(=O)OCC)C1O[C@@H]2OC(C)(C)O[C@@H]2[C@H]1OC | - | Alpha-glucosidase | Mycobacterium aurum | - | 100 µM | - | inhibition | 85.6%
COc1ccccc1C(=O)Nc1nnc(NCCCCc2ccccc2)s1 | - | Polymerase | Human cytomegalovirus | - | - | - | IC50 | >25 µM
Nc1nc(N)c2c(n1)CCC(Cc1cccc(OC(F)(F)F)c1)C2 | - | Dihydrofolate reductase | Cryptosporidium parvum | - | - | TYPE 2 | IC50 | 0.4 µM
OCCN1CCN(CCOc2ccc(-c3ccccc3)cc2)CC1 | - | Oxidosqualene cyclase | Pneumocystis carinii | - | 10 µM | - | inhibition | 48%
Cc1cccc(-c2cncc(N3CCN(c4ccc(Cl)cc4)CC3)n2)c1 | - | UL97 kinase | Cytomegalovirus | - | 10 µM | - | inhibition | >15%
O=c1c(-c2ccncn2)cn2ccn(Cc3ccc(Cl)cc3)c(=O)c2c1O | ELISA | Integrase | HIV-1 | - | - | - | IC50 | <0.01 µM
CCOC(=O)C[C@@H](C1O[C@@H]2OC(C)(C)O[C@@H]2[C@H]1OC)N(C(=O)NCc1ccccc1)C1CC1 | - | Alpha-glucosidase | Mycobacterium aurum | - | 100 µM | - | inhibition | 81.7%
O=c1[nH]cnc2c1ncn2[C@@H]1O[C@H](CO)[C@@H](O)[C@H]1O | - | DHPS | Pneumocystis carinii | - | 100 µM | - | inhibition | 0%
Cc1ccc(N2CCN(c3cncc(-c4cccc5ccccc45)n3)CC2)cc1 | - | UL97 kinase | Cytomegalovirus | - | 10 µM | - | inhibition | >15%
COc1ccc(OC)c(CCc2cc3c(N)nc(N)nc3s2)c1 | - | Dihydrofolate reductase | Cryptosporidium parvum | - | - | TYPE 1 | IC50 | >10 µM
O=C(/C=C/c1ccccc1)Nc1nnc(NCCC(c2ccccc2)c2ccccc2)s1 | - | Polymerase | Human cytomegalovirus | - | - | - | IC50 | >25 µM
O=C(O)c1ccc(N2C(=O)C(=Cc3ccc(-c4cccc(C(F)(F)F)c4)o3)SC2=S)cc1 | - | NS5 polymerase | Bovine viral diarrhea virus | - | - | - | IC50 | ≤1 µM
CCCCCCCCCCCCC/C=C/[C@@H](O)[C@H](CO[C@@H]1O[C@H](CO)[C@H](O)[C@H](OS(=O)(=O)O)[C@H]1O)NC(=O)CCCCCCCCCCCCCCCCCCCCCCC | - | Sialidase | Influenza A virus | - | 200 µM | Influenza A/Memphis/102/72 (H3N2) | inhibition | 98.1%
O=C(Nc1nnc(NCCNc2ccccc2)s1)c1ccc(I)cc1 | - | Polymerase | Human cytomegalovirus | - | - | - | IC50 | >25 µM
O=C(Cn1ncc2c(=O)oc3ccccc3c21)Nc1ccc2c(c1)CC=N2 | absorbance | Inosine monophosphate dehydrogenase | Cryptosporidium parvum | - | - | - | IC50 | >5 µM
Cn1cc2c(c(O)c1=O)C(=O)N(Cc1c(F)cccc1Cl)CC2 | ELISA | Integrase | HIV-1 | - | - | - | IC50 | <0.01 µM
O[C@@H]1[C@@H](O)[C@@H](NCc2ccc(C(F)(F)F)cc2)[C@H]2O[C@H]2[C@H]1O | - | Beta-D-xylosidase | Aspergillus niger | - | 100 µM | - | inhibition | 42%
CN(C)c1ccc(-c2cncc(N3CCN(c4ccc(Cl)cc4)CC3)n2)cc1 | - | UL97 kinase | Cytomegalovirus | - | 10 µM | - | inhibition | >15%
O=C(Cn1ncc2c(=O)oc3ccccc3c21)Nc1cccc(Oc2ccc(Cl)cc2)c1 | absorbance | Inosine monophosphate dehydrogenase | Cryptosporidium parvum | - | - | - | IC50 | 0.02 µM
O[C@@H]1[C@@H](O)[C@@H](NCc2ccc(C(F)(F)F)cc2)[C@@H]2O[C@@H]2[C@H]1O | - | Beta-D-xylosidase | Aspergillus niger | - | 100 µM | - | inhibition | 93%
c1ccc2cc(-c3cncc(NCCc4ccncc4)n3)ccc2c1 | - | UL97 kinase | Cytomegalovirus | - | - | - | IC50 | <1 µM
COc1ccc(OC)c(N(C)Cc2cccc3nc(N)nc(N)c23)c1 | - | Dihydrofolate reductase | Cryptosporidium parvum | - | - | TYPE 1 | IC50 | >10 µM
O=C(NCc1ccccc1)c1cn2ccn(Cc3cccc(Cl)c3)c(=O)c2c(O)c1=O | ELISA | Integrase | HIV-1 | - | - | - | IC50 | <0.01 µM
COc1ccc(-c2ccc(C=C3SC(=S)N(c4ccc(C(=O)O)cc4)C3=O)o2)cc1 | - | NS5 polymerase | Bovine viral diarrhea virus | - | - | - | IC50 | ≤1 µM
Fc1ccccc1N1CCN(c2cncc(-c3cccc4ccccc34)n2)CC1 | - | UL97 kinase | Cytomegalovirus | - | - | - | IC50 | <100 µM
O=C1NC(=S)SC1=Cc1ccc(-c2ccc(Cl)c(Cl)c2)o1 | - | NS5 polymerase | Bovine viral diarrhea virus | - | - | - | IC50 | ≤1 µM
CCCCCCCCCCCNc1nnc(NC(=O)c2ccc(C)cc2)s1 | - | Polymerase | Human cytomegalovirus | - | - | - | IC50 | >25 µM
N[C@@H]1[C@H](O)[C@@H](O)[C@H](O)[C@@H]2O[C@H]12 | - | Beta-D-xylosidase | Aspergillus niger | - | 100 µM | - | inhibition | 0%
Nc1nc(N)c2nc(Cc3ccc(Cl)cc3)c(Cc3ccc(Cl)cc3)nc2n1 | - | Dihydrofolate reductase | Cryptosporidium parvum | - | - | TYPE 2 | IC50 | 1.2 µM
CCCCCCCCCCCNc1nnc(NC(=O)c2cc(F)cc(F)c2)s1 | - | Polymerase | Human cytomegalovirus | - | - | - | IC50 | >25 µM
O=C1NC(=S)SC1=Cc1ccc(-c2cc([N+](=O)[O-])ccc2Cl)o1 | - | NS5 polymerase | Bovine viral diarrhea virus | - | - | - | IC50 | ≤1 µM
COc1cc(CCc2cccc3nc(N)nc(N)c23)cc(OC)c1OC | - | Dihydrofolate reductase | Cryptosporidium parvum | - | - | TYPE 1 | IC50 | >10 µM
CCCCN1C(=O)N(c2ccc(F)cc2)C(=O)C[C@H]1C1OC2OC(C)(C)OC2[C@H]1OC | - | Alpha-glucosidase | Mycobacterium aurum | - | 100 µM | - | inhibition | 13.5%
O=C(O)c1ccccc1 | - | Beta-carbonic anhydrase | Cryptococcus neoformans | - | - | Can2 | Ki | 1267 µM
Cc1ccnc(-c2ccc(C=C3SC(=S)N(c4ccc(C(=O)O)cc4)C3=O)o2)c1 | - | NS5 polymerase | Bovine viral diarrhea virus | - | - | - | IC50 | ≤1 µM
CCCCN(C(=O)Nc1ccc(F)cc1)[C@@H](CC(=O)OCC)C1O[C@@H]2OC(C)(C)O[C@@H]2[C@H]1Oc1ccccc1 | - | Alpha-glucosidase | Mycobacterium aurum | - | 100 µM | - | inhibition | 49.3%
Oc1ccc(CN[C@@H]2[C@H](O)[C@@H](O)[C@H](O)[C@H]3O[C@@H]23)cc1 | - | Beta-D-xylosidase | Aspergillus niger | - | - | - | Ki | 48 µM
Nc1ccn([C@@H]2CS[C@H](COP(=O)(O)OP(=O)(O)OP(=O)(O)O)O2)c(=O)n1 | radiometric | Reverse transcriptase | HIV | RT-K65R Q151M | - | - | fold resistance | 0.94

Again, the opening 6 rows:

compound | read by | target | agent | mutations | tested at | strain or isolate | endpoint | value
Fc1ccccc1N1CCN(c2cncc(-c3ccc4ccccc4c3)n2)CC1 | - | UL97 kinase | Cytomegalovirus | - | 1 µM | - | inhibition | <50%
N#Cc1ccc(C(=O)Nc2nnc(NCCCN3CCCC3=O)s2)cc1 | - | Polymerase | Human cytomegalovirus | - | - | - | IC50 | <25 µM
Cc1ccc(N2CCN(c3cncc(-c4ccc5ccccc5c4)n3)CC2)cc1C | - | UL97 kinase | Cytomegalovirus | - | - | - | IC50 | <10 µM
CN(C)c1cccc2c(S(=O)(=O)Nc3ccc(NC(=O)C(C)(C)CO)cc3)cccc12 | - | Terminase | Mouse cytomegalovirus | - | - | BAY-38-4766-resistant isolate | IC50 | 28.3 µM
CCCCCCCC/C=C/CCCCCCCC(=O)Nc1nnc(NCCNc2ccccc2)s1 | - | Polymerase | Human cytomegalovirus | - | - | - | IC50 | >25 µM
CNC(=O)Cc1cn2ccn(Cc3cccc(Cl)c3)c(=O)c2c(O)c1=O | ELISA | Integrase | HIV-1 | - | - | - | IC50 | 0.01–0.1 µM